Test results taken from patent publication US20230143215A1 (priority 2020, published 2023).

Key:
[1] = system: PBMC from SARS-CoV-2 convalescent donors; assay: Memory T cell responses, 4-day IFNγ ELISpot assay; format: cell-based, human; conditions: SLP 3 μM, versus control SLP
PBMC from healthy donors = assay: Memory T cell responses, 4-day IFNγ ELISpot assay; format: cell-based, human; conditions: SLP 3 μM, versus control SLP

Sequence | Stimulation Index (SI) ([1]; convalescent donor 1001) | Stimulation Index (SI) ([1]; convalescent donor 1003) | Stimulation Index (SI) ([1]; convalescent donor 1004) | Stimulation Index (SI) ([1]; convalescent donor 1005) | Stimulation Index (SI) ([1]; convalescent donor 1006) | Stimulation Index (SI) ([1]; convalescent donor 1007) | Stimulation Index (SI) ([1]; convalescent donor 1008) | Stimulation Index (SI) ([1]; convalescent donor 1010) | Stimulation Index (SI) ([1]; convalescent donor 1108) | Stimulation Index (SI) (PBMC from healthy donors; healthy donor 2001) | Stimulation Index (SI) (PBMC from healthy donors; healthy donor 2002) | Stimulation Index (SI) (PBMC from healthy donors; healthy donor 2003)
ALNTLVKQLSSNFGAISSVLNDILSRLDKV | 5.80 | 2.00 | 0.27 | 0.67 | 5.60 | 1.70 | 1.25 | 6.27 | 11.00 | 0.00 | 0.00 | 1.22
GNGGDAALALLLLDRLNQLESKMSGKGQ | 17.00 | 1.00 | 0.38 | 13.67 | 17.00 | 1.00 | 0.00 | 1.45 | 3.00 | 0.33 | 0.67 | 0.67
HSTQDLFLPFFSNVTWFHAIHVSGTN | 2.20 | 0.00 | 0.14 | 0.33 | 2.20 | 4.20 | 1.00 | 0.27 | 8.00 | 1.33 | 0.00 | 0.56
PLVDLPIGINITRFQTLLALHRSYLTPGDSSSG | 1.00 | 8.00 | 0.11 | 1.67 | 1.00 | 5.10 | 0.50 | 0.73 | 4.00 | 0.67 | 0.33 | 0.89
SSPDDQIGYYRRATRRIRGGDGKMKDLS | 0.40 | 3.00 | 0.19 | 0.67 | 0.40 | 0.90 | 2.75 | 0.18 | 4.00 | 0.00 | 0.67 | 0.78
VLNDILSRLDKVEAEVQIDRLITGRLQSLQTY | 1.20 | 4.00 | 0.22 | 0.33 | 1.20 | 0.90 | 1.00 | 0.64 | 64.00 | 0.00 | 0.00 | 0.56
